Compound potency records, mixed from different reports. Data source: NIAID ChemDB in PubChem.

Common to all: whole-cell or culture tests; agent: Human cytomegalovirus; endpoint: EC50

Two numbers with a dash give a range or band. Rows are shuffled and stem from different studies. ECn: concentration that inhibits the pathogen or its effect by n%. An empty or dashed field is not shown.

{"smiles": "Nc1nc2c(ncn2COC(CO)CO)c(=O)[nH]1", "strain or isolate": "DAVIS", "cells": "HEL", "result": "5.2 µM"}
{"smiles": "OCC1OC(n2c(SCc3ccccc3)nc3nc4cc(Cl)c(Cl)cc4nc32)C(O)C1O", "strain or isolate": "TOWNE", "cells": "KB", "method": "plaque count", "result": "4.2 µM"}
{"smiles": "CC1=C(C)[C@](CO)(c2ccccc2)C[C@H]1n1cnc2c(N)ncnc21", "strain or isolate": "AD169", "cells": "HEL 299", "method": "cytopathic effect", "result": ">100 µg/mL"}
{"smiles": "C[C@H](N)C(=O)OCP(=O)(OC[C@H]1O[C@@H](n2cnc3c(N)ccnc32)C[C@@H]1O)Oc1ccccc1", "strain or isolate": "DAVIS", "cells": "HEL", "result": ">100 µM"}
{"smiles": "Nc1nccc2c1ncn2[C@@H]1C[C@H](CO)[C@@H](O)[C@H]1O", "strain or isolate": "AD-169 (100 PFU)", "cells": "HEL", "method": "cytopathic effect", "result": "4.72 µg/mL"}
{"smiles": "C=C1CN(S(=O)(=O)c2ccc(C)cc2)CCCN(Cc2ccccc2)CCCN(S(=O)(=O)c2ccc(C)cc2)C1", "strain or isolate": "AD169", "result": "30 µg/mL"}
{"smiles": "NC(=O)c1ncn([C@@H]2O[C@H](CO)[C@@H](O)[C@H]2O)n1", "strain or isolate": "DAVIS (100 PFU)", "cells": "HEL", "method": "cytopathic effect", "result": ">100 µg/mL"}
{"smiles": "CC1=C(C)C(CO)(CO)C[C@H]1n1ccc(N)nc1=O", "strain or isolate": "AD169", "cells": "HEL 299", "method": "cytopathic effect", "result": ">100 µg/mL"}
{"smiles": "Nc1cc(S(=O)(=O)O)c(O)c2c1C(=O)c1c(O)c(S(=O)(=O)O)cc(N)c1C2=O", "strain or isolate": "AD169", "cells": "HFF", "method": "cytopathic effect", "result": ">100 µM"}
{"smiles": "O=C1NC(=O)[C@@H](c2c[nH]c3ccccc23)[C@H]1c1c[nH]c2ccccc12", "cells": "VERO", "method": "plaque count", "result": ">10 µM"}
{"smiles": "O=C1c2cccc(O)c2C(=O)c2c(O)cccc21", "strain or isolate": "AD169", "cells": "MRC-5", "method": "plaque count", "result": ">41.6 µM"}
{"smiles": "Nc1ccnc2c1ncn2C1CC(O)C(CO)O1", "strain or isolate": "AD169", "cells": "HEL", "result": ">100 µM"}
{"smiles": "O=c1cc(-c2ccc(O)c(O)c2)oc2cc(O)cc(O)c12", "strain or isolate": "AD169", "cells": "HEF", "method": "plaque count", "result": "10.1 µM"}
{"smiles": "O=C1NC(=O)c2c1c1c3cc(Br)ccc3[nH]c1c1[nH]c3ccc(Br)cc3c21", "cells": "VERO", "method": "plaque count", "result": "0.06 µM"}
{"smiles": "COc1ccc2c(c1)COP(=O)(OC[C@H]1O[C@@H](n3cc(/C=C/Br)c(=O)[nH]c3=O)C[C@@H]1O)O2", "strain or isolate": "AD169", "cells": "HELF", "method": "plaque count", "result": ">128 µg/mL"}
{"smiles": "Nc1nccc2c1ncn2[C@@H]1C=C(CO)[C@@H](O)[C@H]1O", "strain or isolate": "DAVIS (100 PFU)", "cells": "HEL", "method": "cytopathic effect", "result": "0.18 µg/mL"}
{"smiles": "O=C1c2cccc(O)c2C(=O)c2cccc(O)c21", "strain or isolate": "AD169", "cells": "MRC-5", "method": "plaque count", "result": ">41.6 µM"}
{"smiles": "COc1cc(O)c2c(=O)c3cccc(O)c3n(C)c2c1OC", "cells": "HEF", "method": "plaque count", "result": "1.5 µg/mL"}
{"smiles": "CN1C(=O)c2c(c3c4ccccc4[nH]c3c3[nH]c4ccccc4c23)C1=O", "cells": "VERO", "method": "plaque count", "result": ">100 µM"}
{"smiles": "CC(C)(C)C(=O)OCOC(=O)CN(CC(=O)OCOC(=O)C(C)(C)C)P(=O)(OC[C@H]1O[C@@H](n2cc(/C=C/Br)c(=O)[nH]c2=O)C[C@@H]1O)Oc1ccccc1", "strain or isolate": "DAVIS", "cells": "HEL", "result": ">20 µM"}
{"smiles": "Cc1cccc2c1OP(=O)(OC[C@H]1O[C@@H](n3cc(/C=C/Br)c(=O)[nH]c3=O)C[C@@H]1OC(=O)[C@@H]1CCCN1)OC2", "strain or isolate": "AD169", "cells": "HELF", "method": "plaque count", "result": ">128 µg/mL"}
{"smiles": "CC(C)COC(=O)C(O)Cn1cnc2c(N)ncnc21", "strain or isolate": "AD-169 (20 PFU)", "cells": "HEL", "method": "plaque count", "result": "11.75 µg/mL"}
{"smiles": "O=C(NCCc1c[nH]c2ccccc12)C1=Cc2ccncc2CC1", "strain or isolate": "AD169", "cells": "MRC-5", "method": "plaque count", "result": "1.5 µM"}
{"smiles": "O=C1c2ccccc2C(=O)c2c(O)ccc(O)c21", "strain or isolate": "AD169", "cells": "MRC-5", "method": "plaque count", "result": ">41.6 µM"}
{"smiles": "CCCC/C(O)=C(\\C#N)C(=O)Nc1ccc(C(F)(F)F)cc1", "strain or isolate": "TOWNE", "cells": "HEL 299", "method": "plaque count", "result": "1350–1970 µM"}
{"smiles": "O=c1[nH]c(=O)n([C@H]2C[C@H](O)[C@@H](COP3(=O)OCc4cc(-c5ccccc5)ccc4O3)O2)cc1/C=C/Br", "strain or isolate": "AD169", "cells": "HELF", "method": "plaque count", "result": ">128 µg/mL"}
{"smiles": "O=C1NC(=O)c2c1c1c3ccc(F)cc3[nH]c1c1[nH]c3cc(F)ccc3c21", "cells": "VERO", "method": "plaque count", "result": "0.04 µM"}
{"smiles": "Nc1c(N=Nc2ccc([N+](=O)[O-])cc2)c(S(=O)(=O)O)cc2cc(S(=O)(=O)O)c(N=Nc3ccccc3)c(O)c12", "strain or isolate": "AD169", "cells": "HFF", "method": "cytopathic effect", "result": ">50 µM"}
{"smiles": "CCC(=O)O[C@H]1C[C@H](n2cc(/C=C/Br)c(=O)[nH]c2=O)O[C@@H]1COP1(=O)OCc2cccc(C)c2O1", "strain or isolate": "AD169", "cells": "HELF", "method": "plaque count", "result": ">64 µg/mL"}
{"smiles": "Cc1cc(Nc2ccc(O)c3c2C(=O)c2ccccc2C3=O)cc(S(=O)(=O)O)c1", "strain or isolate": "AD169", "cells": "HFF", "method": "cytopathic effect", "result": "150 µM"}
{"smiles": "O=C(NCc1ccc(Cl)cc1)c1c[nH]c2c(F)cc(CCCCO)cc2c1=O", "result": "0.14 µM"}
{"smiles": "CC(C)(C)C(=O)OCOC(=O)CN(CC(=O)OCOC(=O)C(C)(C)C)P(=O)(OC[C@H]1O[C@@H](n2cnc3c(Cl)nccc32)C[C@@H]1O)Oc1ccccc1", "strain or isolate": "AD169", "cells": "HEL", "result": ">100 µM"}
{"smiles": "OCC1OC(n2c(NC3CC3)nc3nc4cc(Cl)c(Cl)cc4nc32)C(O)C1O", "strain or isolate": "TOWNE", "cells": "KB", "method": "plaque count", "result": "32 µM"}
{"smiles": "Nc1ccn([C@@H]2C=C[C@H](P(=O)(O)O)O[C@@H]2CO)c(=O)n1", "result": "10–300 µM"}
{"smiles": "OC[C@H]1O[C@@H](n2c(Cl)nc3cc(Cl)c(Cl)cc32)[C@H](O)[C@@H]1O", "strain or isolate": "TOWNE", "cells": "KB", "method": "plaque count", "result": "2.9 µM"}
{"smiles": "Cc1cc(O)c2c(c1)C(=O)c1cccc(O)c1C2=O", "strain or isolate": "AD169", "cells": "MRC-5", "method": "plaque count", "result": ">39.3 µM"}
{"smiles": "Nc1ncnc2c1ncn2[C@@H]1C[C@H](c2ccccc2)[C@@H](O)[C@H]1O", "strain or isolate": "DAVIS (100 PFU)", "cells": "HEL", "method": "cytopathic effect", "result": "90 µg/mL"}
{"smiles": "Nc1nc2c(ncn2COC(CO)CO)c(=O)[nH]1", "strain or isolate": "AD169", "cells": "HEF", "method": "plaque count", "result": "3.8 µM"}
{"smiles": "Cc1cn([C@H]2C=C[C@@H](CO)O2)c(=O)[nH]c1=O", "cells": "NHDF", "result": ">100 µM"}
{"smiles": "Nc1nccc2c1ncn2C(C=O)OC(C=O)CO", "strain or isolate": "AD-169 (20 PFU)", "cells": "HEL", "method": "plaque count", "result": "1.25 µg/mL"}
{"smiles": "Nc1ncnc2ncn(COCCCl)c12", "strain or isolate": "AD169", "cells": "VERO", "method": "cytopathic effect", "result": ">128 µg/mL"}
{"smiles": "O=C1c2ccc(O)c(O)c2C(=O)c2c(O)ccc(O)c21", "strain or isolate": "AD169", "cells": "MRC-5", "method": "plaque count", "result": "3.7 µM"}
{"smiles": "C=CS(=O)(=O)c1ccc(Nc2cc(S(=O)(=O)O)c(N)c3c2C(=O)c2ccccc2C3=O)cc1", "strain or isolate": "AD169", "cells": "HFF", "method": "cytopathic effect", "result": "110 µM"}
{"smiles": "Nc1ncnc2c1ncn2C[C@H](O)CO", "strain or isolate": "DAVIS (20 PFU)", "cells": "HEL", "method": "plaque count", "result": ">100 µg/mL"}
{"smiles": "O=c1c(-c2ccc(O)cc2)coc2cc(O)cc(O)c12", "strain or isolate": "A6245", "cells": "HEF", "method": "plaque count", "result": "32.4 µM"}
{"smiles": "C[C@H]1C[C@@H](n2cnc3c(N)ncnc32)[C@H](O)[C@@H]1O", "strain or isolate": "AD-169 (20 PFU)", "cells": "HEL", "method": "plaque count", "result": ">100 µg/mL"}
{"smiles": "Nc1ncnc2c1ncn2CCOCP(=O)(O)O", "cells": "NHDF", "result": "39 µM"}
{"smiles": "O=C1NC(=O)C(c2c[nH]c3ccccc23)C1c1c[nH]c2ccccc12", "cells": "VERO", "method": "plaque count", "result": ">100 µM"}
{"smiles": "CN(C)Cc1ccc(Nc2ccc(N)c3c2C(=O)c2ccccc2C3=O)cc1", "strain or isolate": "AD169", "cells": "HFF", "method": "cytopathic effect", "result": ">10 µM"}
{"smiles": "Cc1cccc2c1OP(=O)(OC[C@H]1O[C@@H](n3cc(/C=C/Br)c(=O)[nH]c3=O)C[C@@H]1O)OC2", "strain or isolate": "AD169", "cells": "HELF", "method": "plaque count", "result": ">128 µg/mL"}
{"smiles": "Cc1cc(C)c(Nc2cc(S(=O)(=O)O)c(N)c3c2C(=O)c2ccccc2C3=O)c(C)c1", "strain or isolate": "AD169", "cells": "HFF", "method": "cytopathic effect", "result": "7 µM"}
{"smiles": "COC(=O)CN(CC(=O)OC)P(=O)(OC[C@H]1O[C@@H](n2cnc3c(N)ccnc32)C[C@@H]1O)Oc1ccccc1", "strain or isolate": "AS-169", "cells": "HEL", "result": ">100 µM"}

For reference, 3 entries again:

smiles	strain or isolate	cells	method	result
OC[C@H]1O[C@@H](n2c(Cl)nc3cc(Cl)c(Cl)cc32)[C@H](O)[C@@H]1O	TOWNE	KB	plaque count	2.9 µM
O=C1c2cccc(O)c2C(=O)c2c(O)cccc21	AD169	MRC-5	plaque count	>41.6 µM
Nc1ccnc2c1ncn2C1CC(O)C(CO)O1	AD169	HEL	-	>100 µM